How the values were obtained:
O=P(O)(O)O = experiment: purified protein; conditions: acetate-forming direction; co-substrate acetyl phosphate; 10 mM MgCl2, 100 mM Tris-HCl pH 7.0, 37 °C; apparent; pH 7.0; 37.0 °C
O=P(O)(O)OP(=O)(O)O = experiment: purified protein; conditions: acetyl phosphate-forming direction; co-substrate acetate; 5 mM MgCl2, morpholinoethanesulfonic acid pH 5.5, 600 mM hydroxylamine, 45 °C; apparent; pH 5.5

Row | Substance | Km (O=P(O)(O)O) | kcat (O=P(O)(O)O) | kcat/Km (O=P(O)(O)O) | Km (O=P(O)(O)OP(=O)(O)O) | kcat (O=P(O)(O)OP(=O)(O)O) | kcat/Km (O=P(O)(O)OP(=O)(O)O)
1 | EhACK (Entamoeba histolytica acetate kinase) (Entamoeba histolytica HM-1:IMSS; D272A/M324I/Q323G/R274A) | 18 ± 1.2 mM | 0.076 s⁻¹ | 4 M⁻¹ s⁻¹ | – | – | –
2 | EhACK (Entamoeba histolytica acetate kinase) (Entamoeba histolytica HM-1:IMSS; M324I/Q323G) | 7.3 ± 0.5 mM | 28 s⁻¹ | 3800 M⁻¹ s⁻¹ | 2.0 ± 0.37 mM | 0.45 s⁻¹ | 230 M⁻¹ s⁻¹

Source: article PMC5517563 (Scientific Reports, 2017)
